Anti-infective test results gathered from many reports (values: NIAID ChemDB through PubChem).

Common to all: growth or infection tests; agent: Hepatitis C virus; read-out: EC50

a–b is a range or a potency band.

| SMILES | setting | strain or isolate | read by | cell line | value |
|---|---|---|---|---|---|
| CNC(=O)c1c(-c2ccc(F)cc2)oc2cc(C3CCCN3C(C)=O)c(OC)cc12 | - | - | replicon | Huh7 | <1 µM |
| CCC[C@H](NC(=O)[C@@H]1[C@@H](C2CCCC2)CCN1C(=O)[C@H](NC(=O)[C@H](NC(=O)c1cnccn1)C1CCCCC1)C(C)(C)C)C(=O)C(=O)NC1CC1 | - | Hepatitis C virus | - | - | 2.9 µM |
| COc1c(-c2cccc3ccccc23)cnn([C@@H]2C[C@H]3C(=O)N[C@]4(C(=O)NS(=O)(=O)C5CC5)CC4/C=C\CCCCCC[C@H](NC(=O)OC(C)(C)C)C(=O)N3C2)c1=O | - | 1b | replicon | - | 0.0001 µM |
| CS(=O)(=O)c1cccc(F)c1-c1cc(-c2cccc(NC(=O)C(Cl)Cl)c2)on1 | - | - | replicon | - | >10 µM |
| CNC(=O)c1c(-c2ccc(F)cc2)oc2cc(S(=O)(=O)NC3CCC3)c(OC(C)C)cc12 | - | - | replicon | Huh7 | <30 µM |
| CNC(=O)c1c(-c2ccc(F)cc2)oc2cc(N(Cc3ccc(B(O)O)c(F)c3)S(C)(=O)=O)c(C3CC3)cc12 | - | JFH1 Genotype 2a | luciferase | Huh7.5 | 0.0076 µM |
| O=C(NS(=O)(=O)C1CC1)c1c(-c2ccc[nH]c2=O)c2c3occc3c(F)cc2n1Cc1cc(F)ccc1F | - | - | replicon | - | <0.5 µM |
| CCOc1ccccc1-c1cc(-c2cccc(N(C)C(=O)C(Cl)Cl)c2)on1 | - | - | replicon | - | ≤10 µM |
| O=C(N[C@@H](C(=O)N1CCC[C@H]1C(=O)Nc1nc(-c2ccccc2)cs1)c1ccccc1)C1CC1 | - | genotype 2a | luciferase | JFH1 | 0.8076 µM |
| O=C(Nc1cc(-c2cc(-c3c(Cl)cccc3Cl)no2)ccc1F)C(Cl)Cl | - | - | replicon | - | ≤10 µM |
| CCC[C@H](NC(=O)[C@@H]1[C@@H](Cc2ccccc2)CCN1C(=O)[C@H](NC(=O)[C@H](NC(=O)c1cnccn1)C1CCCCC1)C(C)(C)C)C(=O)C(=O)NC1CC1 | - | Hepatitis C virus | - | - | 1.1 µM |
| CNC(=O)c1c(-c2ccc(F)cc2)oc2cc(N(C)S(C)(=O)=O)c(OCc3nnnn3C)cc12 | - | - | replicon | Huh7 | <1 µM |
| CCC[C@H](NC(=O)[C@@H]1[C@H]2CCC[C@H]2CN1C(=O)[C@@H](NC(=O)[C@@H](NC(=O)c1cnccn1)C1CCCCC1)C(C)(C)C)C(=O)C(=O)NC1CC1 | 40% human serum | - | replicon | Huh7 | 3.45 µM |
| O=C(Nc1cccc(-c2cc(-c3c(F)cccc3C(F)(F)F)no2)c1)C(Cl)Cl | - | - | replicon | - | ≤10 µM |
| CC1CCC(C(=O)N(c2cc(C#CC(C)(C)C)sc2C(=O)O)C2CCC(O)CC2)CC1 | - | 1b | - | Huh7 | 0.0003 µM |
| Cc1cc(Cl)ccc1NCc1cc2ccccc2oc1=O | - | - | - | Ava5 | 85 µM |
| O=C(Nc1cccc(-c2cc(-c3c(Cl)cccc3Cl)no2)c1)C(Br)Br | - | - | replicon | - | ≤10 µM |
| O=c1oc2ccccc2cc1CNc1cccc(O)c1 | - | - | - | Ava5 | 50 µM |
| CNC(=O)c1c(-c2ccccc2)oc2cc(C)c(OC)cc12 | - | - | replicon | Huh7 | <1 µM |
| CCC[C@H](NC(=O)[C@@H]1[C@@H](CC)CCN1C(=O)[C@H](NC(=O)[C@H](NC(=O)c1cnccn1)C1CCCCC1)C(C)(C)C)C(=O)C(=O)NC1CC1 | - | Hepatitis C virus | - | - | 0.45 µM |
| O=C(O)c1c(-c2ccc[nH]c2=O)c2c3ccccc3c(F)cc2n1Cc1ccccc1F | - | - | replicon | - | 1–10 µM |
| COC(=O)NC[C@H](C(=O)N1CCCC1c1ncc(-c2ccc(-c3ccc(-c4cnc(C5CCCN5C(=O)[C@@H](NC(=O)OC)C(C)C)[nH]4)cc3)cc2)[nH]1)C(C)C | - | HCV4a-21 | - | - | 0.000007 µM |
| NC(=O)[C@@H](Cc1ccc(O)cc1)NC(=O)c1ccc2c(c1)nc(-c1ccoc1)n2C1CCCCC1 | - | - | - | Huh7 | ~31 µM |
| O=c1oc2ccccc2cc1CNc1ccc(Br)cc1Cl | - | - | - | Ava5 | 45 µM |
| CCC[C@H](NC(=O)[C@@H]1[C@@H](C(CC)CC)CCN1C(=O)[C@H](NC(=O)[C@H](NC(=O)c1cnccn1)C1CCCCC1)C(C)(C)C)C(=O)C(=O)NC1CC1 | - | Hepatitis C virus | - | - | >3 µM |
| CS(=O)(=O)NC(=O)c1c(-c2ccc[nH]c2=O)c2c3sccc3ccc2n1Cc1ccc(F)cc1F | - | - | replicon | - | >1.5 µM |
| CCCCCCCCCCCCCCOC(=O)NC(CCC(=O)O)(CCC(=O)O)CCC(=O)O | - | 1b | replicon / PCR | Huh7-SGcon1b | 0.0252 µM |
| CNC(=O)c1c(-c2ccc(F)cc2)oc2cc(-c3cc(C4CC4)no3)c(OC(C)C)cc12 | - | - | replicon | Huh7 | <10 µM |
| NS(=O)(=O)c1cc(CNc2nc(NCC(F)(F)F)c3nc(-c4ccc(NC(=O)C5(C(F)(F)F)CC5)nc4)ccc3n2)cc(C(F)(F)F)c1 | - | 1b | luciferase | - | 0.006 µM |
| CCCCn1c(=O)c2cc(OC)ccc2c2cc(C(O)(C(F)(F)F)C(F)(F)F)c3c(c21)OCO3 | - | 1b | PCR | LucNeo2 cells | 0.14 µM |
| CS(=O)(=O)NC(=O)c1c(-c2ccc[nH]c2=O)c2c3occc3ccc2n1Cc1cc(C(N)=O)ccc1F | - | - | replicon | - | <0.5 µM |
| COc1cc(OC)c2c(=O)cc(-c3ccc(OP(=O)(O)OP(=O)(O)O)c(N)c3)n(C)c2c1 | - | - | replicon | Huh 5-2 | >50 µg/mL |
| COC(=O)N[C@H](C(=O)N1CC2(CC2)C[C@H]1c1ncc(-c2ccc3c(c2)C(F)(F)c2cc(-c4ccc5nc([C@@H]6[C@H]7CC[C@H](C7)N6C(=O)[C@@H](NC(=O)OC)C(C)C)[nH]c5c4)ccc2-3)[nH]1)C(C)C | - | Genotype 6a | replicon | HCV replicon | 0.00011 µM |
| CC(C)S(=O)(=O)NC(=O)c1c(-c2ccc[nH]c2=O)c2c3occc3c(F)cc2n1Cc1ccccc1F | - | - | replicon | - | <0.5 µM |
| CNC(=O)c1c(-c2ccc(F)cc2)oc2cc(N(CCOC)S(C)(=O)=O)c(OC(C)C)cc12 | - | - | replicon | Huh7 | <1 µM |
| COc1cnc(O[C@@H]2C[C@H]3C(=O)N[C@]4(C(=O)NS(=O)(=O)C5CC5)C[C@H]4/C=C\CCCCC[C@@H](NC(=O)Nc4ccc5c(c4)B(O)OC5)C(=O)N3C2)c2cc(Cl)ccc12 | - | 1b | replicon | - | 0.0039 µM |
| Nc1ccccc1S(=O)(=O)NC(=O)c1c(-c2ccc[nH]c2=O)c2c3occc3c(F)cc2n1Cc1cc2ccccc2nc1Cl | - | - | replicon | - | <0.5 µM |
| CCC[C@H](NC(=O)[C@@H]1[C@H]2CCC[C@H]2CN1C(=O)[C@@H](NC(=O)[C@@H](NC(=O)c1cnccn1)C1CCCCC1)C(C)(C)C)C(=O)C(=O)NC1CC1 | - | 1b | - | Huh7 | 0.8 µM |
| O=C(Nc1cc(-c2cc(-c3c(Cl)cccc3Cl)no2)ccc1N1CCOCC1)C(Cl)Cl | - | - | replicon | - | >10 µM |
| CNC(=O)c1c(-c2ccc(CNC(C)=O)cc2)oc2ccc(OC(C)C)cc12 | - | - | replicon | Huh7 | <30 µM |
| NC(=O)c1ccc(F)c(Cn2c(C(=O)O)c(-c3ccc[nH]c3=O)c3c4occc4c(F)cc32)c1 | - | - | replicon | - | <0.5 µM |
| O=c1oc2ccccc2cc1CNc1cc([N+](=O)[O-])cc([N+](=O)[O-])c1 | - | - | - | Ava5 | 100 µM |
| N#Cc1cccc(S(=O)(=O)N(Cc2c(Cl)cccc2Cl)c2cccc(C(=O)NC3CCC3)c2)c1 | - | 1b | PCR | Huh 5-2 | 28 µM |

ECn: concentration that inhibits the pathogen or its effect by n%. Blank or dashed fields: not listed here. Lines come from different laboratories, so protocols vary.